Measured values from several laboratories, pooled; numbers as filed in NIAID ChemDB.

Common to all: host cell toxicity; cells: HepG2.2.15; measure: CC50

CCn is the concentration with n% toxicity to the cells. Lines come from different laboratories, so protocols vary.

{"structure": "C=C(C)[C@H](OC(=O)COCC)[C@H](C[C@@H](C)C1=C2C[C@H](OC(=O)COCC)[C@H]3[C@@]4(C)CCC(=O)C(C)(C)[C@@H]4CC[C@]3(C)[C@@]2(C)CC1)OC(=O)COCC", "value": ">1200 µM"}
{"structure": "CC1(C)[C@@H](O)CC[C@]2(C)[C@H]3C(=O)C=C4[C@@H]5C[C@@](C)(C(=O)OCC6CC6)CC[C@]5(C)CC[C@@]4(C)[C@]3(C)CC[C@@H]12", "value": "696 µM"}
{"structure": "C[C@H](C[C@H](OC(=O)c1ccccc1)[C@@H](OC(=O)c1ccccc1)C(C)(C)OC(=O)c1ccccc1)C1=C2C[C@H](OC(=O)c3ccccc3)[C@H]3[C@@]4(C)CCC(=O)C(C)(C)[C@@H]4CC[C@]3(C)[C@@]2(C)CC1", "value": ">1400 µM"}
{"structure": "OCCc1c(Cl)nc2ccc(Cl)cc2c1-c1ccccc1Cl", "value": "42.5 µM"}
{"structure": "C[C@H](C[C@H](OC(=O)CN1C(=O)c2ccccc2C1=O)[C@@H](OC(=O)CN1C(=O)c2ccccc2C1=O)C(C)(C)OC(=O)CN1C(=O)c2ccccc2C1=O)C1=C2C[C@H](OC(=O)CN3C(=O)c4ccccc4C3=O)[C@H]3[C@@]4(C)CCC(=O)C(C)(C)[C@@H]4CC[C@]3(C)[C@@]2(C)CC1", "value": ">1300 µM"}
{"structure": "C[C@H](C[C@H](OC(=O)C1CCCCC1)[C@@H](OC(=O)C1CCCCC1)C(C)(C)O)C1=C2C[C@H](OC(=O)C3CCCCC3)[C@H]3[C@@]4(C)CCC(=O)C(C)(C)[C@@H]4CC[C@]3(C)[C@@]2(C)CC1", "value": ">800 µM"}
{"structure": "C[C@H](C[C@H](O[Si](C)(C)C)[C@@H](O[Si](C)(C)C)C(C)(C)O[Si](C)(C)C)C1=C2C[C@H](O[Si](C)(C)C)[C@H]3[C@@]4(C)CCC(=O)C(C)(C)[C@@H]4CC[C@]3(C)[C@@]2(C)CC1", "value": ">51 µM"}
{"structure": "CCCC(=O)O[C@H]1CC[C@]2(C)[C@H]3C(=O)C=C4[C@@H]5C[C@@](C)(C(=O)O)CC[C@]5(C)CC[C@@]4(C)[C@]3(C)CC[C@H]2C1(C)C", "value": "118.8 µM"}
{"structure": "C[C@H](C[C@H](OC(=O)c1ccc(Br)cc1)[C@@H](OC(=O)c1ccc(Br)cc1)C(C)(C)O)C1=C2C[C@H](OC(=O)c3ccc(Br)cc3)[C@H]3[C@@]4(C)CCC(=O)C(C)(C)[C@@H]4CC[C@]3(C)[C@@]2(C)CC1", "value": "650 µM"}
{"structure": "CCC(=O)O[C@@H](C[C@@H](C)[C@]12CC[C@@]3(C)[C@@]1(C[C@H](OC(=O)CC)[C@H]1[C@@]4(C)CCC(=O)C(C)(C)[C@@H]4CC[C@@]13C)O2)[C@@H](OC(=O)CC)C(C)(C)OC(=O)CC", "value": ">2200 µM"}
{"structure": "CC1(C)[C@@H](O)CC[C@]2(C)[C@H]3C(=O)C=C4[C@@H]5C[C@@](C)(C(=O)OCc6ccc(S(C)(=O)=O)cc6)CC[C@]5(C)CC[C@@]4(C)[C@]3(C)CC[C@@H]12", "value": "1030 µM"}
{"structure": "[N-]=[N+]=NCCc1c(Cl)nc2ccc(Cl)cc2c1-c1ccccc1Cl", "value": ">2510 µM"}
{"structure": "CCCCC(=O)O[C@@H](C[C@@H](C)C1=C2C[C@H](OC(=O)CCCC)[C@H]3[C@@]4(C)CCC(=O)C(C)(C)[C@@H]4CC[C@]3(C)[C@@]2(C)CC1)[C@@H](OC(=O)CCCC)C(C)(C)OC(=O)CCCC", "value": ">1400 µM"}
{"structure": "CCC(=O)O[C@H]1CC[C@]2(C)[C@H]3C(=O)C=C4[C@@H]5C[C@@](C)(C(=O)O)CC[C@]5(C)CC[C@@]4(C)[C@]3(C)CC[C@H]2C1(C)C", "value": "99.58 µM"}
{"structure": "OCCc1c(N2CCCCC2)nc2ccc(Cl)cc2c1-c1ccccc1Cl", "value": "155 µM"}
{"structure": "C[C@H](C[C@H](OC(=O)CCOc1ccccc1)[C@@H](OC(=O)CCOc1ccccc1)C(C)(C)O)C1=C2C[C@H](OC(=O)CCOc3ccccc3)[C@H]3[C@@]4(C)CCC(=O)C(C)(C)[C@@H]4CC[C@]3(C)[C@@]2(C)CC1", "value": ">950 µM"}
{"structure": "CC1(C)[C@@H](O)CC[C@]2(C)[C@H]3C(=O)C=C4[C@@H]5C[C@@](C)(C(=O)OCCOc6ccccc6)CC[C@]5(C)CC[C@@]4(C)[C@]3(C)CC[C@@H]12", "value": "101 µM"}
{"structure": "C=C(C)[C@H](OC(=O)COC(C)=O)[C@H](C[C@@H](C)C1=C2C[C@H](OC(=O)COC(C)=O)[C@H]3[C@@]4(C)CCC(=O)C(C)(C)[C@@H]4CC[C@]3(C)[C@@]2(C)CC1)OC(=O)COC(C)=O", "value": "<32 µM"}
{"structure": "CC1(C)[C@@H](O)CC[C@]2(C)[C@H]3C(=O)C=C4[C@@H]5C[C@@](C)(C(=O)OCc6ccccc6C#N)CC[C@]5(C)CC[C@@]4(C)[C@]3(C)CC[C@@H]12", "value": ">1540 µM"}
{"structure": "C[C@H](C[C@H](OC(=O)/C=C/c1ccccc1)[C@@H](OC(=O)/C=C/c1ccccc1)C(C)(C)OC(=O)/C=C/c1ccccc1)C1=C2C[C@H](OC(=O)/C=C/c3ccccc3)[C@H]3[C@@]4(C)CCC(=O)C(C)(C)[C@@H]4CC[C@]3(C)[C@@]2(C)CC1", "value": ">1200 µM"}
{"structure": "C[C@H](C[C@H](OC(=O)Cc1ccc([N+](=O)[O-])cc1)[C@@H](OC(=O)Cc1ccc([N+](=O)[O-])cc1)C(C)(C)O)C1=C2C[C@H](OC(=O)Cc3ccc([N+](=O)[O-])cc3)[C@H]3[C@@]4(C)CCC(=O)C(C)(C)[C@@H]4CC[C@]3(C)[C@@]2(C)CC1", "value": ">1000 µM"}
{"structure": "OCCc1c(OCc2c(F)cccc2F)nc2ccc(Cl)cc2c1-c1ccccc1Cl", "value": "108.9 µM"}
{"structure": "C[C@H](C[C@H](OC(=O)C1CC1)[C@@H](OC(=O)C1CC1)C(C)(C)OC(=O)C1CC1)C1=C2C[C@H](OC(=O)C3CC3)[C@H]3[C@@]4(C)CCC(=O)C(C)(C)[C@@H]4CC[C@]3(C)[C@@]2(C)CC1", "value": ">2100 µM"}
{"structure": "CC1(C)[C@@H](O)CC[C@]2(C)[C@H]3C(=O)C=C4[C@@H]5C[C@@](C)(C(=O)OCc6ccc(I)cc6)CC[C@]5(C)CC[C@@]4(C)[C@]3(C)CC[C@@H]12", "value": ">986 µM"}
{"structure": "CCCCCCCC(=O)O[C@@H](C[C@@H](C)C1=C2C[C@H](OC(=O)CCCCCCC)[C@H]3[C@@]4(C)CCC(=O)C(C)(C)[C@@H]4CC[C@]3(C)[C@@]2(C)CC1)[C@@H](OC(=O)CCCCCCC)C(C)(C)O", "value": ">600 µM"}

For reference, 2 entries again:

structure,value
CCCCC(=O)O[C@@H](C[C@@H](C)C1=C2C[C@H](OC(=O)CCCC)[C@H]3[C@@]4(C)CCC(=O)C(C)(C)[C@@H]4CC[C@]3(C)[C@@]2(C)CC1)[C@@H](OC(=O)CCCC)C(C)(C)OC(=O)CCCC,>1400 µM
CC1(C)[C@@H](O)CC[C@]2(C)[C@H]3C(=O)C=C4[C@@H]5C[C@@](C)(C(=O)OCCOc6ccccc6)CC[C@]5(C)CC[C@@]4(C)[C@]3(C)CC[C@@H]12,101 µM